Measured values reported in the supplement of paper PMC9931576.
Human monoclonal antibodies against the spike receptor-binding domain (heavy:light variable regions). IC50 against pseudoviruses bearing the spike of naturally observed variants; lower = stronger; >10 µg/ml means not reached at the top dose. No active / inactive call. The stated detection limit is 0.0005 µg/ml; values near or below 0.001 µg/ml lie at the floor of the assay.

B1: BD55-5895 (protein)
chain 1: QLQLQESGPGLVKPSETLSLTCTVSGGSISSSSYYWGWIRQPPGKGLEWIGSLDYSGSTYYNPSLNNRVTISVDTSKNQFSLNLYSVTAADTAVYYCARSIAAPGTLDWFDPWGQGTLVTVSS
chain 2: QSVLTQPPSVSGAPGQRVTISCTGSSSNIGAGYDVHWYQQLPGTAPKLLIYGYTNRPSGVPDRFSGSKSGTSASLAITGLQAEDEADYYCQSYDSSLSGWVFGGGTKLTVL
B2: BD55-5898 (protein)
chain 1: QVQLVQSGAEVKKPGASVKVSCKASGYTFTTYDINWVRQATGQRPEWMGWMNPNSGNTGYAHNFQGRVTMTRNTSISTAYMELSSLRSEDTAVYYCARGLSSTSYYYYAMDVWGQGTTVTVSS
chain 2: DIQMTQSPSSLSASVGDRVTITCRASQSISYYLNWYQQKPGKAPKLLIYTASSLQSGVPSRFSGSGSGTDFTLTISSLQPEDFATYFCQQSYSTPGTFGQGTKVEIK
B3: BD55-5904 (protein)
chain 1: QVQLVQSGAEVKKPGSSLKVSCKASGGTFSTYVISWVRQAPGQGLEWLGEIIPILDIANYAQGFQGRVTITADKATNTAYMELSSLRSEDTAVYYCARAQIVDILMAYNPVYYYGMDVWGQGTTVTVSS
chain 2: DIQLTQSPSFLSASVGDRVTITCRASQGISSYLAWYQQKPGKVPKLLIYAASTLQSGVPSRFSGSGSGTEFTLTISSLQPEDFATYYCQQLNSYPLTFGGGTKVEIK
B4: BD55-5892 (protein)
chain 1: EVQLVESGGGLVKPGRSLRLSCTASGFTFGDYGIYWFRQAPGKGLEWVASIRSKAYGGTTDYAASVHGRFTISRDDSKSIAYLQMNSLKTEDTAVYYCSREARHSSSPYYYYTMDVWGQGTTVPVSS
chain 2: DIQMTQSPSSLSASVGDRVTITCRASQTISYYLNWYQQKPGKAPKLLIYATSTLQSGVPSRFSGSGSGTDFTLTIISLQPEDFATYYCQHSYSLPITFGQGTRLEIE
B5: BD55-5913 (protein)
chain 1: QVQLVQSGAEVKKPGASVKVSCKASAYTFTNFDVNWVRQAAGQGLEWMGWMNPNSGNTGYSHKFQGRVAMTRNISISTAYMELSSLKSEDTAVYYCAIHFNSQHSYYYYTMDVWGQGTTVIVSS
chain 2: DIQMTQSPSSLSASVGDRVTITCRASQTISYYCNWYQQKPGKAPKLLIYAASTLQSGVPSRFSGSGSGTDFTLTISSLQPEDFATYYCQESYSTPPSFGQGTKVEIK
B6: BD55-5882 (protein)
chain 1: EVQLVESGGGLVQPGRSLRLSCAASGFTFGDYAMHWVRQAPGKGLEWVSGISWNGGSIDYTDSVKGRFTISRDNAKNSLYLQMNSLRAEDTAFYYCAKAYSSGHAYYYGMDVWGQGTTVTVTS
chain 2: DIQMTQSPSSLSASVGDRVTISCRASQTISDYLHWYQQKPGKAPKLLIHVTSSLQSGVPSRFSGSGSGTDFTLTISSLQPEDFATYYCQQSYITPYTFGQGTKLEIK
B7: BD55-1109 (protein)
chain 1: QVQLVQSGTEVKKPGSSVKVSCKISGGTFTNYAITWVRQAPGQGLEWMGRIIPIFAMADYAQKFQGRVTITADKSTSTAYMELSSLKSEDTAIYYCNFDSNTYRELQNWGQGTLVTVSS
chain 2: DIQMTQSPSSLSASIGDRVTITCQASQDIKKSLHWFQQKPGKAPRLLIYDASDLETGVPSRFSGSGSGTDFTLTISSLQPEDLATYFCQQYDNIPLTFGGGTKVDFK
B8: BD55-1117 (protein)
chain 1: EVQLVESGGVAVQPGGSLRLSCAGSGFTFDDYTMHWVRQPPGKGLEWVSLITWDGYTTHYADSVKGRFTISRDNSKNALYLQMNSLRTDDTALYYCAKDTHGGITTSWFWGQGTLVTVSS
chain 2: QSGLTQPPSVSATPGQKVTISCSGGSSNIGKNYVSWYQHLPGTAPKLLIYDNYKRPSGIPDRFSGSKSGTSATLTITGLQTGDEADYYCGSWDTSLFVVLLGGGTKVTVL
B9: BD55-5891 (protein)
chain 1: QVQLVQSGAEVKKPGASVKVSCKASGYTFSNYDINWVRQASGQGLEWMGWMNPNSGDTGYAQKFQGRVSMSRNTALSTAYMELSSLTSEDTAVYYCAREWGAHLKVRHENCFDPWGQGTLVTVSS
chain 2: DIEMTQSPTSLSASVGDRVAIPCRASQSISTYLNWYQQKPGKAPKLLIYGASTLQSGVPSRFSGSGSGTDFTLTISSLRPEDFATYHCQQSYSAPYTFGQGTKLEIK
B10: BD55-5858 (protein)
chain 1: EVQLVQSGAEVKKPGESLKISCKGSGYGSTTYWIAWVRQKPGKGLEWMGMIYPGDSDTRYSPSFQGQVTISADKSISTAYLQWSSLKASDTAIYYCGRRVGSGTYYDPDYYGVDVWGQGTTVTVSS
chain 2: QSVLTQPPSVSGAPGQRVTISCTGSSSNIGAGYDVHWYQQFPGTAPKLLIFGNSNRPSGVSDRFSGSKSGTSASLAITGLQAEDEADYYCQSSDSSLSGSHVVFGGGTKLTVL
B11: BD55-5912 (protein)
chain 1: QVQLQQWGAGLLKPSEALSLTCAVYGESFSGYYWSWIRQPPGKGLEWIGEINHSGSTNYNPSLKSRVTISVHTSKNQFSLRLSSVTAADTAVYYCATGDSSSFWHAFDIWGQGTMVTVSS
chain 2: DIVMTQSPDSLAVSLGERATINCKSSQSVLYSSNNKNYLGWYQQKPGQPPKLLISWASTRESGVVDRFSGSGSGTDFTLTISSLQAEDVAVYYCQQYYSSPLTFGQGTKVEIK
B12: BD55-5884 (protein)
chain 1: EVQLVESGGGLVKSGGSLRLSCAASGFTFSDFPMHWVRQAPGKGLEFVSSITSDGVGTFYADSVKGRFVISRDSSKNMMYLQMGSLRAEDMAIYYCAREGRYSAYALHLFFDYWGQGTPVTVSS
chain 2: DIQMTQSPSSLSASVGDRVTITCRASQSISNYLNWYQQKPGRAPRLLVYAASNLQSGVPSRFGGSGSGTDFTLTITNLQPEDFATYYCQQSYITPQYTFGQGTKLEIK
B13: BD55-5896 (protein)
chain 1: QVQLVQSGAEVKKPGSSVKVSCKASGGTISRDGIVWVRQAPGQGLEWMGGIIPIYGTTDYAQKFQRKVTITADKSTSTAYMELSSLRSEDTALYYCARARRYDILTAPGTFDIWGQGTMVTVSS
chain 2: SSELTQDPAVSVALGQTVRITCHGDSLRSFYASWYQQKAGQAPVLVISDENNRPSGVPDRFSGSSSGNTASLTITGAQAEDEADYYCNSRDISGNHLVFGGGTKLTVL

Tests used:
Assay in all cases: pseudovirus neutralization IC50; higher = weaker neutralization
[1] = target: SARS-CoV-2 Omicron BA.1 spike pseudovirus
Experimental: (§1)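 Single-round VSV luciferase pseudovirus mixed with antibody dilutions for 1 h and put on Huh-7 cells for about a day; IC50 from the dose curve.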

[2] = target: SARS-CoV-2 Omicron BA.2 spike pseudovirus
Experimental: as §1

[3] = target: SARS-CoV-2 Omicron BA.2.75 spike pseudovirus
Experimental: as §1

[4] = target: SARS-CoV-2 Omicron BA.5 spike pseudovirus
Experimental: as §1

[5] = target: SARS-CoV-2 Omicron BQ.1.1 spike pseudovirus
Experimental: as §1

[6] = target: SARS-CoV-2 Omicron XBB spike pseudovirus
Experimental: as §1

[7] = target: SARS-CoV-2 early D614G spike pseudovirus
Experimental: as §1

Binder	pseudovirus neutralization IC50 [1]	pseudovirus neutralization IC50 [2]	pseudovirus neutralization IC50 [3]	pseudovirus neutralization IC50 [4]	pseudovirus neutralization IC50 [5]	pseudovirus neutralization IC50 [6]	pseudovirus neutralization IC50 [7]
B1	0.00987 µg/mL	0.0141 µg/mL	0.0128 µg/mL	1.17 µg/mL	> 10 µg/mL	> 10 µg/mL	0.00316 µg/mL
B2	> 10 µg/mL	> 10 µg/mL	> 10 µg/mL	> 10 µg/mL	> 10 µg/mL	> 10 µg/mL	> 10 µg/mL
B3	> 10 µg/mL	> 10 µg/mL	> 10 µg/mL	> 10 µg/mL	> 10 µg/mL	> 10 µg/mL	> 10 µg/mL
B4	> 10 µg/mL	> 10 µg/mL	> 10 µg/mL	> 10 µg/mL	> 10 µg/mL	> 10 µg/mL	> 10 µg/mL
B5	> 10 µg/mL	> 10 µg/mL	> 10 µg/mL	> 10 µg/mL	> 10 µg/mL	> 10 µg/mL	> 10 µg/mL
B6	> 10 µg/mL	0.00634 µg/mL	0.00626 µg/mL	> 10 µg/mL	> 10 µg/mL	> 10 µg/mL	0.00178 µg/mL
B7	> 10 µg/mL	0.665 µg/mL	> 10 µg/mL	0.614 µg/mL		> 10 µg/mL	0.321 µg/mL
B8	0.349 µg/mL	> 10 µg/mL	> 10 µg/mL	> 10 µg/mL	> 10 µg/mL	> 10 µg/mL	0.487 µg/mL
B9	> 10 µg/mL	> 10 µg/mL	> 10 µg/mL	> 10 µg/mL	> 10 µg/mL	> 10 µg/mL	> 10 µg/mL
B10	> 10 µg/mL	> 10 µg/mL	> 10 µg/mL	> 10 µg/mL	> 10 µg/mL	> 10 µg/mL	0.308 µg/mL
B11	0.481 µg/mL	0.458 µg/mL	0.0957 µg/mL	> 10 µg/mL	> 10 µg/mL	> 10 µg/mL	0.0205 µg/mL
B12	> 10 µg/mL	> 10 µg/mL	> 10 µg/mL	> 10 µg/mL	> 10 µg/mL	> 10 µg/mL	> 10 µg/mL
B13	> 10 µg/mL	> 10 µg/mL	> 10 µg/mL	> 10 µg/mL	> 10 µg/mL	> 10 µg/mL	> 10 µg/mL
